Results of unrelated studies side by side (data: NIAID ChemDB).

Neighbouring rows are from separate reports. Percent inhibition refers to the dose given; in toxicity tests it is the harm to the cells. ECn: concentration that inhibits the pathogen or its effect by n%. Blank or dashed fields: not listed here. ICn is the concentration giving n% inhibition. A number after MIC or MFC names an inhibition level or a share of isolates. MIC bound: limit read from a one-dose screen.

SMILES,kind,species,strain or isolate,cell line,protein,read by,read-out,dose,value
O=C(O)c1ccc(S(=O)(=O)[O-])cc1C(=O)O,culture,Rhinovirus,-,Human embryonic lung cells,-,cytopathic effect,inhibition,5 µg/mL,0%
COc1ccc(N2CCN(c3cncc(-c4ccc(F)cc4F)n3)CC2)cc1OC,target,Cytomegalovirus,-,-,UL97 kinase,-,inhibition,10 µM,>15%
O=S(=O)([O-])c1ccc(O)cc1,culture,Herpes simplex virus,-,Human amnion AV3 cells,-,cytopathic effect,inhibition,50 µg/mL,20%
FC(F)(F)c1cccc(N2CCN(c3cncc(-c4csc5ccccc45)n3)CC2)c1,target,Cytomegalovirus,-,-,UL97 kinase,-,IC50,-,<100 µM
C/C=C/C(N)=O,culture,Mycobacterium tuberculosis,H37Rv,-,-,-,MIC,-,>100 µg/mL
Fc1ccc(-c2cncc(N3CCN(c4ccncc4)CC3)n2)c(F)c1,target,Cytomegalovirus,-,-,UL97 kinase,-,inhibition,1 µM,<50%
O=CNc1ccc(S(=O)(=O)c2ccc(NC=O)cc2)cc1,culture,Mycobacterium tuberculosis,H37Rv,-,-,BACTEC,MIC bound,-,>12.8 µg/mL
C1CNCC(C2CCCN2)C1.Cl,culture,Mycobacterium tuberculosis,H37Rv,-,-,-,MIC,-,>100 µg/mL
CC(=O)c1cccc(NC(=O)C(=O)Nn2c(N)nnc2N)c1,culture,Mycobacterium tuberculosis,H37Rv,-,-,BACTEC,MIC bound,-,>12.5 µg/mL
O=C(Nc1ccc(S(=O)(=O)[O-])c2cccc(S(=O)(=O)[O-])c12)c1ccccc1,culture,Herpes simplex virus,-,Human conjunctiva cells,-,cytopathic effect,inhibition,5 µg/mL,0%
Cc1cc(C(N)=O)c(C(N)=O)c(=O)[nH]1,culture,Mycobacterium tuberculosis,H37Rv,-,-,BACTEC,MIC bound,-,>12.5 µg/mL
O.O=S([O-])CO.[Na+],culture,Mycobacterium tuberculosis,H37Rv,-,-,-,MIC,-,>100 µg/mL
CCOc1ccc(-c2cncc(N3CCN(c4ccncc4)CC3)n2)cc1,target,Cytomegalovirus,-,-,UL97 kinase,-,IC50,-,<10 µM
CCCc1cc(=O)oc2c3c(c4c(c12)OC(C)(C)C=C4)O[C@@H](C)[C@H](C)[C@@H]3O,culture,Mycobacterium tuberculosis,H37Rv,-,-,BACTEC,inhibition,12.5 µg/mL,99%
O=[N+]([O-])c1cc([N+](=O)[O-])c2ccc(S(=O)(=O)O)cc2c1O,culture,Adenovirus,TYPE 3,Human amnion AV3 cells,-,cytopathic effect,inhibition,5 µg/mL,0%
C=CCc1ccc(OC)c(OC)c1,culture,Candida albicans,2883,-,-,turbidity,MIC90,-,345 µg/mL
C/C=C1\N=C(c2ccccc2)OC1=O,culture,Mycobacterium tuberculosis,H37Rv,-,-,-,MIC,-,100 µg/mL
O=C1C=CC(=CC=C2C=CN(CCCCCCO)C=C2)C=C1,culture,Mycobacterium tuberculosis,H37Rv,-,-,BACTEC,inhibition,12.5 µg/mL,12%
C#CC[C@@H](C(=O)N[C@H](/C=C/C(=O)OCC)C[C@@H]1CCNC1=O)n1cccc(NC(=O)c2cc(C)on2)c1=O,culture,Rhinovirus,Serotype 3,H1-HELA,-,cytopathic effect / XTT,EC50,-,0.021 µM
CCN(CC)C(=O)c1cncc(C(N)=O)c1,culture,Mycobacterium tuberculosis,H37Rv,-,-,BACTEC,MIC bound,-,>12.5 µg/mL
CN(C)c1ccc(-c2cncc(N3CCC(c4ccccc4)CC3)n2)cc1,target,Cytomegalovirus,-,-,UL97 kinase,-,inhibition,1 µM,<50%
Cc1ccc(C)n1-c1cc(Cl)cc2cccnc12,culture,Mycobacterium tuberculosis,H37Rv,-,-,-,MIC,-,>100 µg/mL
FC(F)(F)c1ccc(-c2cncc(N3CCN(c4cnccn4)CC3)n2)cc1,target,Cytomegalovirus,-,-,UL97 kinase,-,IC50,-,<10 µM
CC(=O)OC1=C2C(C[C@H]3[C@@H]4CC=C5C[C@@H](OC(C)=O)CC[C@]5(C)[C@H]4CC[C@]23C)C(C(=O)NCc2ccccc2)C(C(=O)O)C1,culture,Mycobacterium tuberculosis,H37Rv,-,-,resazurin,inhibition,6.25 µg/mL,1%
NC(=O)c1cccc(-c2cncc(N3CCN(c4ccncc4)CC3)n2)c1,target,Cytomegalovirus,-,-,UL97 kinase,-,inhibition,1 µM,<50%
O=C(Cc1c[nH]c2ccccc12)N=Nc1c(O)[nH]c2ccccc12,culture,Mycobacterium tuberculosis,H37Rv,-,-,BACTEC,MIC bound,-,>12.5 µg/mL
c1ccc2c(-c3cncc(N4CCN(c5ccncc5)CC4)n3)cccc2c1,target,Cytomegalovirus,-,-,UL97 kinase,-,IC50,-,<10 µM
O=S(=O)(O)c1cc(O)c2c(O)cc(S(=O)(=O)O)cc2c1,culture,Rhinovirus,-,Human amnion AV3 cells,-,cytopathic effect,inhibition,10 µg/mL,30%
O=C(O)c1ccc([N+](=O)[O-])cc1O,culture,Mycobacterium tuberculosis,H37Rv,-,-,-,MIC,-,100 µg/mL
CN(C)C(=O)c1ccc(N=Nc2c(N)c(N=Nc3ccc(-c4ccc(N=Nc5ccc(O)c(C(=O)O)c5)cc4)cc3)cc(S(=O)(=O)O)c2N)cc1,culture,Mycobacterium tuberculosis,H37Rv,-,-,BACTEC,MIC,-,≥12.5 µg/mL
CCN(CC)CC(COC(=O)Nc1ccccc1)OC(=O)Nc1ccccc1,culture,Mycobacterium tuberculosis,H37Rv,-,-,-,MIC,-,>100 µg/mL
CCCN(CCC)CCNc1ccc(C)c2sc3ccccc3c(=O)c12,culture,Mycobacterium tuberculosis,H37Rv,-,-,BACTEC,MIC,-,3.13 µg/mL
CC(=O)c1ccccc1Br,culture,Mycobacterium tuberculosis,H37Rv,-,-,-,MIC,-,>100 µg/mL
O=C1S/C(=C2/C(=O)N(CN3CCOCC3)c3ccc(Br)cc32)C(=O)N1CN1CCOCC1,culture,Mycobacterium tuberculosis,H37Rv,-,-,BACTEC,inhibition,12.5 µg/mL,0%
CC(=O)Nc1ccc(S(=O)(=O)c2ccc(NC(C)=O)cc2)cc1,culture,Mycobacterium tuberculosis,H37Rv,-,-,-,MIC,-,>100 µg/mL
CC.COC(=O)[C@H]1Cc2cc(O)c(O)cc2C2(CCN(C)CC2)O1.Cc1ccc(S(=O)(=O)O)cc1,culture,Mycobacterium tuberculosis,H37Rv,-,-,BACTEC,MIC bound,-,>12.5 µg/mL
CCCCCN(c1ccc(C)cc1)c1ccc(O)c2c1C(=O)c1c(O)ccc(N(CCCCC)c3ccc(C)cc3)c1C2=O,culture,Mycobacterium tuberculosis,H37Rv,-,-,-,MIC,-,>100 µg/mL
CCOc1ccc(Nc2nc3c(s2)C(=O)c2ccccc2C3=O)cc1,culture,Mycobacterium tuberculosis,H37Rv,-,-,BACTEC,MIC,-,1.6 µg/mL
O=c1cc(O)n(-c2nc3ccccc3s2)[nH]1,culture,Mycobacterium tuberculosis,H37Rv,-,-,-,MIC,-,>100 µg/mL
NNC(=O)c1nc2ccccc2[nH]1,culture,Mycobacterium tuberculosis,H37Rv,-,-,BACTEC,inhibition,12.5 µg/mL,99%
Cl.Nc1ccnc(Nc2ccccc2)n1,culture,Mycobacterium tuberculosis,H37Rv,-,-,-,MIC,-,>100 µg/mL
CO[C@H]1/C=C/O[C@@]2(C)Oc3c(C)c(O)c4c(O)c(c(/C=N/N(c5ccccc5)c5ccccc5)c(O)c4c3C2=O)NC(=O)/C(C)=C\C=C\[C@H](C)[C@H](O)[C@@H](C)[C@@H](O)[C@@H](C)[C@H](OC(C)=O)[C@@H]1C,culture,Mycobacterium tuberculosis,H37Rv,VERO,-,BACTEC,MIC,-,0.2 µg/mL
CC(N)c1cccs1.Cl,culture,Mycobacterium tuberculosis,H37Rv,-,-,-,MIC,-,>1600 µg/mL
Cc1cc(-c2ccc(N=Nc3c(N)c(S(=O)(=O)O)cc4cc(S(=O)(=O)O)ccc34)c(C)c2)ccc1N=Nc1c(N)ccc2cc(S(=O)(=O)O)ccc12,culture,Herpes simplex virus,-,Human amnion AV3 cells,-,cytopathic effect,inhibition,5 µg/mL,0%
Cc1ccccc1OCC(O)CO,culture,Mycobacterium tuberculosis,H37Rv,-,-,-,MIC,-,>100 µg/mL
NNC(=O)CS(=O)(=O)Nc1ncccn1,culture,Mycobacterium tuberculosis,H37Rv,-,-,BACTEC,inhibition,12.5 µg/mL,24%
Cc1ccc(O)cc1-c1cc(O)ccc1C,culture,Mycobacterium tuberculosis,H37Rv,-,-,-,MIC,-,25 µg/mL
CN1C(=O)c2ccccc2Cc2c(NCc3ccccc3)ncnc21,culture,Mycobacterium tuberculosis,H37Rv,-,-,BACTEC,inhibition,12.5 µg/mL,13%
CC(=O)Nc1ccccc1-c1ccccc1NC(C)=O,culture,Mycobacterium tuberculosis,H37Rv,-,-,-,MIC,-,100 µg/mL
c1ccc(N2CCN(c3cncc(-c4csc5ccccc45)n3)CC2)cc1,target,Cytomegalovirus,-,-,UL97 kinase,-,IC50,-,<10 µM
O=C(O)c1ccc(Cl)s1,culture,Mycobacterium tuberculosis,H37Rv,-,-,-,MIC,-,50 µg/mL
Fc1ccc(N2CCCCC2)c(NC(=S)c2ccncc2)c1,host protein,-,-,-,DLK,kinase activity,inhibition,10 µM,-1.4%
O=C1c2ccccc2C(=O)N1CCCc1ccc2oc3ccccc3c2c1,culture,Mycobacterium tuberculosis,H37Rv,-,-,BACTEC,inhibition,12.5 µg/mL,4%
CC(=O)c1ccc(O)cc1O,culture,Mycobacterium tuberculosis,H37Rv,-,-,-,MIC,-,>100 µg/mL